# Assay results published in PubChem BioAssay AID1794808 (University of Kansas High Throughput Screening Laboratory, 2022).
# Only a part is listed here, and it is no random draw. The source made the active and inactive calls. Cut-off read from the data, not from the text of the source: active = inhibition above about 50%; inactive = the rest.
# System: Plasmodium falciparum apicoplast DNA polymerase (apPOL)
# Experiment: Pf-apPOL inhibitors, biochemical, fluorescence (AID 1794808)
# Settings: Recombinant Pf-apPOL, molecular beacon fluorescence, 1.5 h; at 10 µM; stronger effect = higher value
row,SMILES,inhibition
1,Cc1ccccc1NC1CC(C)(C)NC(C)(C)C1,inactive: 0.4%
2,N#CC1(Nc2ccccc2)CCN(Cc2ccccc2)CC1,inactive: -6.7%
3,COc1ccc(NC2CCN(CCc3ccccc3)CC2)c(OC)c1,inactive: -0.1%
4,CCCN1CCC(Nc2ccc(F)cc2)CC1,inactive: -0.1%
5,CCN1CCC(Nc2ccc(Cl)cc2)CC1,inactive: -1.9%
6,COc1ccc(NC2CCN(C(=O)OC(C)(C)C)CC2)cc1,inactive: 0.6%
7,O=S1(=O)CC(Cl)C(SC2CS(=O)(=O)CC2Cl)C1 (stereo unspecified),inactive: 3.9%
8,NC(=O)C1(Nc2ccccc2)CCN(Cc2ccccc2)CC1,inactive: -7.6%
9,CN1CCC(Nc2ccc(F)cc2)CC1,inactive: -2.8%
10,CCOC(=O)N1CCC(Nc2ccc(C)cc2)CC1,inactive: 5.7%
11,CC(=O)N1CCN(C/C=C/c2ccccc2[N+](=O)[O-])CC1,inactive: -5.3%
12,CCCN1CCC(Nc2ccccc2F)CC1,inactive: 6.7%
13,CCCN1CCC(Nc2cc(OC)cc(OC)c2)CC1,inactive: -7.5%
14,Clc1ccc(NC2CCN(Cc3ccccc3)CC2)cc1,inactive: -2.5%
15,Fc1cccc(NC2CCN(CCc3ccccc3)CC2)c1,inactive: 1.4%
16,Fc1ccccc1NC1CCN(Cc2ccccc2)CC1,inactive: -10.2%
17,CC(C)N1CCC(N(C(=O)Cc2ccccc2)c2ccc(Cl)cc2)CC1,inactive: 15.3%
18,CCN1CCC(Nc2ccc(F)cc2)CC1,inactive: -0.6%
19,CCN1CCC(Nc2cccc(F)c2)CC1,inactive: 2.5%
20,CN1CCC(Nc2ccc(F)c(Cl)c2)CC1,inactive: 2.2%
21,CN1CCC(Nc2ccc(Cl)cc2)CC1,inactive: -2.9%
